Patent US11162944B2, “Compositions and methods” (priority 2015, dated 2021)

System: biomarker (antibody) in serum from patients with suspected TB (tuberculosis)
Assay: ELISA of 64 serum samples on three synthetic antigens (Example 6)
Type: binding, human
Details: dilution 1 in 80
Description: ELISA assays were carried out as known to those practiced in the art using 96 well plates. In the first procedure, the ELISA assay was carried out on 96-well microplates and the purified antigens were dissolved in n-hexane at a concentration of 62.5 μg/mL. The antigen solution was diluted and 50 μL was placed in each well. The plates were left to dry at room temperature overnight. Blocking was done with 0.5% casein/PBS (400 μL/well) and the plates were left to incubate at 25° C. for 1 h. The casein was aspirated using the LT-3500 plate washer and the plates flicked dry. Then the serum (1:20 dilution in 0.5% casein/PBS, pH 7.4) was added to the plate (50 μL/well) and left to incubate at 25° C. for 1 h. The serum was aspirated and washed three times with (casein/PBS, 400 μL/well) using the same plate washer and the plates were flicked dry again. After that, the secondary antibody, in the example given IgG Fc (1:1000 dilution in 0.5% casein/PBS) was added to the plate (50 μL/well) and the plates were left to incubate at 25° C. for 30 min. The plates were washed three times again with casein/PBS (400 μL/well) and dried. Then, the OPD substrate was added to the plates, which were left to incubate at 25° C. for 30 min. Finally, 2.5 M H2SO4 (50 μL/well) was added and the absorbances of each well were read at 492, 450 and 630 nm using an LT-4000 plate reader. […]

Structure (SMILES): CCCCCCCCCCCCCCCCCCCCCCCC[C@@H](C(=O)OC[C@H]1O[C@H](OC)[C@@H](O)[C@@H]1O)[C@H](O)CCCCCCCCCCCC1CC1CCCCCCCCCCCCCC[C@H]1C[C@H]1CCCCCCCCCCCCCCCCCCCC (some centres unmarked) [Antigen 3]
- Individual Sensitivity: 100%
- Individual Specificity: 80%
